Anti-infective test results gathered from many reports (values: NIAID ChemDB through PubChem).

All rows: tests in culture; agent: Mycobacterium tuberculosis

Percent inhibition refers to the dose given; in toxicity tests it is the harm to the cells. MIC bound comes from a single tested concentration. Lines come from different laboratories, so protocols vary. A number after MIC or MFC names an inhibition level or a share of isolates. ECn is the concentration giving n% inhibition of infection, replication or growth. An empty or dashed field is not shown.

compound,strain,changes,cells,method,conditions,measure,dose,result
CN[C@@H]1[C@H](O[C@H]2[C@H](O[C@H]3[C@H](O)[C@@H](O)[C@H](N=C(N)N)[C@@H](O)[C@@H]3N=C(N)N)O[C@@H](C)[C@]2(O)C=O)O[C@@H](CO)[C@H](O)[C@H]1O,H37Rv,-,-,-,-,MIC,-,0.625 µg/mL
Nc1nccc(Nc2ccccc2)n1,H37Rv,-,-,-,-,MIC,-,>100 µg/mL
NC(=O)c1cnccn1,H37Rv,-,-,-,-,MIC,-,8 µg/mL
CCCCCCCCCCCCCCCCCC1=NCCN1,H37Rv,-,-,-,-,MIC,-,25 µg/mL
COc1nc2ccc(Br)cc2cc1[C@@H](c1ccccc1)[C@](O)(CCN(C)C)c1cccc2ccccc12,H37Rv,-,-,resazurin,-,MIC,-,>32 µg/mL
Cc1cc2c(cc1C)[n+](=O)c(C(=O)Nc1ccccc1)c(C)n2[O-],H37Rv,-,-,-,-,MIC,-,>6.25 µg/mL
Nc1nc2nccnc2c(=O)[nH]1,H37Rv,-,-,-,-,MIC,-,>100 µg/mL
CC[C@H]1OC(=O)[C@H](C)[C@@H](O[C@H]2C[C@@](C)(OC)[C@@H](O)[C@H](C)O2)[C@H](C)[C@@H](O[C@@H]2O[C@H](C)C[C@H](N(C)C)[C@H]2O)[C@](C)(OC)C[C@@H](C)C(=O)[C@H](C)[C@@H](O)[C@]1(C)O,Isolate 2237,-,-,-,-,MIC,-,0.125 µg/mL
Nc1cccc(NC(=O)c2ccccc2)c1,H37Rv,-,-,-,-,MIC,-,>100 µg/mL
Cc1cccc(NC(=O)c2cnc(C(C)(C)C)c(Cl)n2)c1Br,H37Rv,-,-,-,-,MIC,-,16 µg/mL
Cc1cc(NCCN(C(C)C)C(C)C)nc(/N=C(\N)Nc2ccc(Cl)c(C(F)(F)F)c2)n1,H37Rv,-,-,BACTEC,-,inhibition,12.5 µg/mL,97%
COc1cc2ccc(Br)cc2cc1[C@@H](c1ccc(Cl)cc1)[C@@](O)(CCN(C)C)c1ccccc1Br,Clinical isolate,-,-,resazurin,-,MIC,-,0.348 µg/mL
CCN(CC)CCNc1ccc2nc(C)n3c4ccc(OC)cc4c(=O)c1c23.Cl,H37Rv,-,-,BACTEC,-,inhibition,12.5 µg/mL,96%
COc1cc2ccccc2cc1[C@@H](c1ccc(Cl)cc1)[C@@](O)(CCN(C)C)c1cccc2ccccc12,H37Rv,-,-,resazurin,-,MIC,-,0.962 µg/mL
COc1cc(/C=C2\N=C(c3cc(OC)c(OC)c(OC)c3)OC2=O)ccc1O,H37Rv,-,-,BACTEC,-,MIC bound,-,>12.5 µg/mL
c1ccc(-n2c3ccccc3c3ccccc32)cc1,H37Rv,-,-,-,-,MIC,-,>100 µg/mL
COc1ccccc1[C@H](c1cc2cc(Br)ccc2cc1OC)[C@@](O)(CCN(C)C)c1cccc2ccccc12,H37Rv,-,-,resazurin,-,MIC,-,0.258 µg/mL
Cc1c(C(=O)N2CCN(c3ccc(Cl)cc3)CC2)[n+](=O)c2ccccc2n1[O-],H37Rv,-,-,-,-,MIC,-,>6.25 µg/mL
COc1cc2ccc(Br)cc2cc1[C@@H](c1ccccc1)[C@@](O)(CCN(C)C)c1cccc(Br)c1,Clinical isolate,-,-,resazurin,-,MIC,-,0.298 µg/mL
CC1=NNC(=O)C1,H37Rv,-,-,-,-,MIC,-,>100 µg/mL
COc1cc2c(oc(=O)c3cc(C)cc(OC)c32)c2c(C3OC(C)C(O)C(C)(O)C3O)ccc(O)c12,EMB-R,-,-,-,-,MIC,-,12.5 µg/mL
C=CCc1cccc(C(=O)O)c1O,H37Rv,-,-,-,-,MIC,-,25 µg/mL
Cc1cccc(NC(=O)c2cncc(Cl)n2)c1Br,H37Rv,-,-,-,-,MIC,-,>128 µg/mL
Nc1nnc(N)s1,H37Rv,-,-,-,-,MIC,-,>100 µg/mL
Cc1cc2c(cc1C)[n+](=O)c(C(=O)NC(C)(C)C)c(C)n2[O-],H37Rv,-,-,-,-,MIC,-,>6.25 µg/mL
COC(=O)c1ccc(N(C)CC/C(CNc2nc(N)[nH]c(=O)c2[N+](=O)[O-])=N\NC(N)=O)cc1,H37Rv,-,-,BACTEC,-,inhibition,12.5 µg/mL,13%
CCCc1ccc(-n2c(-c3ccc(Cl)cc3)cc(CN3CCOCC3)c2C)cc1,H37Rv,-,-,-,-,MIC90,-,29.7 µM
CN(C)c1ccc(/C=N/NC(=O)c2ccncc2)cc1,H37Rv,-,-,resazurin,-,MIC,-,≤0.1 µg/mL
COc1ccc(-n2c(-c3ccc(C(C)C)cc3)cc(CN3CCOCC3)c2C)cc1,H37Rv,-,-,-,-,MIC90,-,23.82 µM
Cl.Nc1nc(N)nc(Nc2ccc(O)cc2)n1,H37Rv,-,-,-,-,MIC,-,>100 µg/mL
Cc1ccccc1NC(=O)c1c(C)n([O-])c2ccc(Cl)cc2[n+]1=O,H37Rv,-,VERO,-,-,inhibition,6.25 µg/mL,98%
CC[n+]1c2ccc(C)cc2nc2c3ccccc3c(N)cc21.[Cl-],H37Rv,-,-,BACTEC,-,MIC bound,-,≤12.5 µg/mL
CCc1ccc(-c2cc(CN3CCOCC3)c(C)n2-c2ccc(F)cc2)cc1,H37Rv DR6,V681I M492T V564A,-,-,-,MIC,-,0.66 µM
CCN(CC)C(=S)SCC(=O)O,H37Rv,-,-,BACTEC,-,MIC bound,-,>128 µg/mL
CCCCCCCCCCCCN1c2ccccc2Sc2ccccc21,H37Rv,-,-,-,-,MIC,-,>100 µg/mL
C=C(C)/C=C/[C@]12C[C@H](C)[C@H]3CC[C@](C)(NC)[C@@H](CC[C@H]1C)[C@@H]32,H37Rv,-,-,-,-,MIC,-,15 µg/mL
CNCCNC,H37Rv,-,-,-,-,MIC,-,>100 µg/mL
CCCCNC(=O)P(=O)(O)c1ccccc1,H37Rv,-,-,BACTEC,-,inhibition,12.5 µg/mL,3%
O=C1CCCC1,H37Rv,-,-,-,-,MIC,-,>100 µg/mL
Cc1csc(NC(=O)c2cc(Cl)ccc2O)n1,My 331/88,-,-,-,-,MIC,-,62.5 µM
Cc1cc(=O)c2cc(N=Cc3ccc([N+](=O)[O-])o3)ccc2o1,H37Rv,-,-,resazurin,-,MIC bound,-,>6.25 µg/mL
COc1ccc(Nc2ccnc(N)n2)cc1OC.Cl,H37Rv,-,-,-,-,MIC,-,>100 µg/mL
COc1cc2ccc(Br)cc2cc1[C@@H](c1ccccc1)[C@@](O)(CCN(C)C)c1ccc(Br)cc1,Clinical isolate,-,-,resazurin,-,MIC,-,0.152 µg/mL
COc1ccccc1C1OCC(C)(C)N1C,H37Rv,-,-,BACTEC,-,MIC bound,-,>12.5 µg/mL
CC(C)[C@H]1CC[C@@](C)(C(=O)O)C1,H37Rv,-,-,-,-,MIC,-,50 µg/mL
Cc1c(C(=O)N2CCN(Cc3ccccc3)CC2)[n+](=O)c2ccccc2n1[O-],H37Rv,-,-,-,-,MIC,-,>6.25 µg/mL
NC(=O)CSc1ncnc2c1cnn2CCCCO,H37Rv,-,-,-,-,MIC,-,>6.25 µg/mL
O=C(Nc1ccc(C(F)(F)F)cc1)c1cnccn1,H37Rv,-,-,-,-,MIC,-,2 µg/mL
O=C1C=C(NCCCCC2CCCCC2)c2ccccc2C1=O,H37Rv,-,-,-,-,inhibition,6.25 µg/mL,100%
O=[N+]([O-])[O][Ga]([O][N+](=O)[O-])[O][N+](=O)[O-],MDR isolates,-,-,-,inside macrophages,EC50,-,<500 µM
COc1ccc(C(=O)Nc2cnccn2)c(O)c1,My 331/88,-,-,-,-,MIC,-,16 µM
CC[N+](CC)(CC)CCOC(=O)Nc1ccccc1.[I-],H37Rv,-,-,-,-,MIC,-,100 µg/mL
Cc1c(C(=O)N2CCN(c3ccc([N+](=O)[O-])cc3)CC2)[n+](=O)c2ccccc2n1[O-],H37Rv,-,-,-,-,MIC,-,>6.25 µg/mL
CCC(Sc1ncnc2c1cnn2COCCO)C(N)=O,H37Rv,-,-,-,-,MIC,-,>6.25 µg/mL
O=C(NCCO)N/N=C(\CCN1CCCCC1)c1ccc([N+](=O)[O-])o1,H37Rv,-,-,BACTEC,-,MIC bound,-,>12.5 µg/mL
O=C(Nc1cncs1)c1ccc(Cl)cc1O,My 331/88,-,-,-,-,MIC,-,16 µM
NCCCCc1cccnc1,H37Rv,-,-,-,-,MIC,-,400 µg/mL
O=C(Nn1cncn1)c1cc(F)ccc1O,My 331/88,-,-,-,-,MIC,-,1000 µM
COc1ccc(N2CCN(C(=O)c3c(C)n([O-])c4ccccc4[n+]3=O)CC2)cc1,H37Rv,-,-,-,-,MIC,-,>6.25 µg/mL
Cc1ccc(-c2ccccc2)n1NC(=O)c1ccncc1,H37Rv,-,-,turbidity,-,MBC,-,7.8 µg/mL
CC[C@@H](CO)NCCN[C@@H](CC)CO,WC 64/02,-,-,-,-,MIC,-,1.25 µg/mL
CO[C@H]1/C=C/O[C@@]2(C)Oc3c(C)c(O)c4c(O)c(c5c(c4c3C2=O)NC2(CCN(CC(C)C)CC2)N=5)=NC(=O)/C(C)=C\C=C\[C@H](C)[C@H](O)[C@@H](C)[C@@H](O)[C@@H](C)[C@H](OC(C)=O)[C@@H]1C,2 isolates (Asp516Tyr),-,-,-,-,MIC,-,0.5 µg/mL
CCOC(=O)c1cnc2c(ccc3ncccc32)c1Cl,H37Rv,-,-,BACTEC,-,MIC bound,-,>12.5 µg/mL
Cc1ccc(NC(=O)c2cnc(C(C)(C)C)c(Cl)n2)cc1I,H37Rv,-,-,-,-,MIC,-,4 µg/mL
COc1ccc(C(c2ccc(C(C)C)cc(=O)c2O)c2ccc3cccnc3c2O)cc1,H37Rv,-,-,resazurin,-,MIC bound,-,>6.25 µg/mL
O=C(O)c1ccc(N=Nc2ccccc2)cc1,H37Rv,-,-,-,-,MIC,-,50 µg/mL
Cc1cc2c(cc1C)[n+](=O)c(C(=O)Nc1ccccc1C)c(C)n2[O-],H37Rv,-,-,-,-,inhibition,6.25 µg/mL,22%
S=c1[nH][nH]c(=S)c2c1[nH]c(=S)n2Cc1ccccc1,H37Rv,-,-,BACTEC,-,MIC bound,-,≤12.5 µg/mL
Cc1cc(NC(=O)c2cc(I)ccc2O)no1,My 331/88,-,-,-,-,MIC,-,125 µM
CC1COc2c(N3CCN(C)CC3)c(F)cc3c(=O)c(C(=O)O)cn1c23,55 isolates,-,-,-,-,inhibition,1 µg/mL,76%
O=C(O)c1ccc([As](=O)(O)O)cc1,H37Rv,-,-,-,-,MIC,-,>100 µg/mL
O=C(C(=O)n1ncc(Cl)c(Cl)c1=O)n1ncc(Cl)c(Cl)c1=O,H37Rv,-,-,BACTEC,-,inhibition,12.5 µg/mL,1%
CC(Sc1ncnc2c1cnn2CCCCO)C(N)=O,H37Rv,-,-,-,-,MIC,-,>6.25 µg/mL
Cc1ccc(-c2cc(CN3CCOCC3)c(C)n2-c2ccc(Cl)cc2)cc1,H37Rv,-,-,-,-,MIC90,-,42.45 µM
O=C(Nn1cncn1)c1ccc(Cl)cc1O,My 331/88,-,-,-,-,MIC,-,1000 µM
O=C(NCC(=O)N1CCN(c2ccc(N3C[C@H](Cn4ccnn4)OC3=O)cc2F)CC1)c1cccnc1,H37Rv,-,-,visual reading,-,MIC,-,2 µM
Cc1ccc2c(c1)[n+](=O)c(C(=O)N1CCN(c3ccccc3)CC1)c(C)n2[O-],H37Rv,-,-,-,-,inhibition,6.25 µg/mL,0%
COc1ccc(CCC#N)c(O)c1,H37Rv,-,-,-,-,MIC,-,100 µg/mL
CCCCCCCCCCCCCCCCNC(=O)C1=CCN(C)[C@@H]([C@H](O[C@@H]2O[C@H](CN)[C@@H](O)[C@H]2O)[C@H]2O[C@@H](n3ccc(=O)[nH]c3=O)[C@H](O)[C@@H]2O)C(=O)N1C,H37Rv,-,-,-,-,MIC,-,1.56 µg/mL
O=C(Nn1c(-c2ccccc2)ccc1-c1ccccc1)c1ccncc1,H37Rv,-,-,turbidity,-,EC90,-,3.72 µg/mL
CC(=O)OC12C=CC(=O)N1c1ccccc1C(=O)O2,H37Rv,-,-,resazurin,-,inhibition,6.25 µg/mL,16%
Cc1ccc(-c2ccccc2)n1NC(=O)COc1ccc2ccccc2c1,H37Rv (ATCC 27294),-,-,resazurin,-,inhibition,100 µg/mL,100%
O=C(NCC(=O)N1CCN(c2ccc(N3C[C@H](Cn4ccnn4)OC3=O)cc2F)CC1)C1=CC=C([N+](=O)[O-])C1,SRI 1367,Rifampicin-resistant,-,broth dilution / visual reading,-,MIC,-,0.46 µM
Cc1cc(O)c2c(c1)C(=O)C(c1c(C)cc3c(c1O)C(=O)C1OC1C3=O)=CC2=O,PAS-R,-,-,-,-,MIC,-,0.8 µg/mL
Cc1ccc(-c2cc(CN3CCOCC3)c(C)n2-c2ccc(F)cc2)cc1,H37Rv DR9,V240M R735C,-,-,-,MIC,-,1.35 µM
COc1ccc(C(=O)Nn2c(C)ccc2-c2ccccc2)cc1,H37Rv (ATCC 27294),-,-,resazurin,-,inhibition,100 µg/mL,100%
CCN(CC)CCCCCOC(=O)c1ccc(N)cc1.Cl,H37Rv,-,-,-,-,MIC,-,>100 µg/mL
Clc1ccccc1C(Cc1c(Cl)cccc1Cl)Cn1ccnc1,H37Rv,-,-,resazurin,-,MIC bound,-,<6.25 µg/mL
CN1CCN(c2c(F)cc3c(=O)c(C(=O)O)cn(CCF)c3c2F)CC1,-,-,-,-,-,MIC90,-,3.13 µg/mL

The last 8 rows once more:

compound	strain	changes	cells	method	conditions	measure	dose	result
Cc1ccc(-c2ccccc2)n1NC(=O)COc1ccc2ccccc2c1	H37Rv (ATCC 27294)	-	-	resazurin	-	inhibition	100 µg/mL	100%
O=C(NCC(=O)N1CCN(c2ccc(N3C[C@H](Cn4ccnn4)OC3=O)cc2F)CC1)C1=CC=C([N+](=O)[O-])C1	SRI 1367	Rifampicin-resistant	-	broth dilution / visual reading	-	MIC	-	0.46 µM
Cc1cc(O)c2c(c1)C(=O)C(c1c(C)cc3c(c1O)C(=O)C1OC1C3=O)=CC2=O	PAS-R	-	-	-	-	MIC	-	0.8 µg/mL
Cc1ccc(-c2cc(CN3CCOCC3)c(C)n2-c2ccc(F)cc2)cc1	H37Rv DR9	V240M R735C	-	-	-	MIC	-	1.35 µM
COc1ccc(C(=O)Nn2c(C)ccc2-c2ccccc2)cc1	H37Rv (ATCC 27294)	-	-	resazurin	-	inhibition	100 µg/mL	100%
CCN(CC)CCCCCOC(=O)c1ccc(N)cc1.Cl	H37Rv	-	-	-	-	MIC	-	>100 µg/mL
Clc1ccccc1C(Cc1c(Cl)cccc1Cl)Cn1ccnc1	H37Rv	-	-	resazurin	-	MIC bound	-	<6.25 µg/mL
CN1CCN(c2c(F)cc3c(=O)c(C(=O)O)cn(CCF)c3c2F)CC1	-	-	-	-	-	MIC90	-	3.13 µg/mL